## Structure probing of HIV-1 leader RNA with DMS

RNA: 5' end of the HIV-1 NL4-3 genome, made in vitro. Positions 1-437 read:
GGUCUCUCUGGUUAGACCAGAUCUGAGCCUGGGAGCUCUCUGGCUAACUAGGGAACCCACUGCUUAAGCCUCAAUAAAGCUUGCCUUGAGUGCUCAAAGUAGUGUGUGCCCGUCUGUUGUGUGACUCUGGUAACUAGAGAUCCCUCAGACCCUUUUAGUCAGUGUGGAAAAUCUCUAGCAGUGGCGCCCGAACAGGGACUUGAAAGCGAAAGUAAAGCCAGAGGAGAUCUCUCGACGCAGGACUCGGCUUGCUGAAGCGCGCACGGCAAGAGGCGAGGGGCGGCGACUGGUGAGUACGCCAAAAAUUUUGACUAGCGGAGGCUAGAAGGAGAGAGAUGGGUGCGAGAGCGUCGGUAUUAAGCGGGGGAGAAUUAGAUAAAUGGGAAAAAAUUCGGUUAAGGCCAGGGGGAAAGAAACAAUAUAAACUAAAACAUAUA

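Mutant RNA libraries with 1G, 2G or 3G starts, with or without cap, were folded at 37 °C for 30 min. Monomer and dimer bands were cut from native gels after folding in high salt (300 mM KCl, 5 mM MgCl2) or low salt (40 mM KCl, 0.1 mM MgCl2). Gel slices were treated with 170 mM dimethyl sulfate for 15 min at 37 °C and read by mutational profiling against an ethanol control.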

Values are winsor-normalised DMS reactivities of A and C; higher means more reactive, usually unpaired.
One numbering serves 1G, 2G and 3G.
A position is written with its base.

position,1G capped low-salt dimer,1G capped low-salt monomer,1G uncapped high-salt dimer,1G uncapped high-salt monomer
A225,0.78,0.71,0.83,0.80
A227,0.30,0.27,0.24,0.30
C229,0.15,0.22,0.14,0.24
C231,0.12,0.16,0.11,0.15
C233,0.18,0.29,0.15,0.27
A235,0.76,0.67,0.78,0.69
C236,0.47,0.57,0.41,0.51
C238,0.51,0.72,0.43,0.71
A239,0.72,0.57,0.74,0.59
A242,1.09,0.91,1.12,0.93
C243,0.06,0.06,0.04,0.07
C245,0.09,0.21,0.06,0.21
C248,0.05,0.05,0.04,0.06
C252,0.08,0.18,0.05,0.21
A255,0.49,0.47,0.50,0.48
A256,1.05,0.88,1.09,0.87
C258,0.30,0.36,0.22,0.35
C260,0.44,0.51,0.34,0.50
C262,0.30,0.42,0.22,0.39
A263,0.76,0.24,0.90,0.24
C264,0.26,0.45,0.19,0.39
C267,0.10,0.19,0.07,0.18
A268,0.22,0.31,0.18,0.29
A269,0.33,0.50,0.26,0.52
A271,0.58,0.57,0.55,0.54
C274,0.32,0.67,0.24,0.60
A276,0.53,1.00,0.38,0.98
C281,0.37,0.43,0.42,0.39
C284,0.16,0.20,0.16,0.19
A286,0.64,0.50,0.67,0.56
C287,0.40,0.28,0.39,0.29
A293,0.86,0.76,0.98,0.86
A296,0.61,0.60,0.57,0.59
C297,0.14,0.17,0.12,0.15
C299,0.06,0.06,0.06,0.06
C300,0.08,0.05,0.06,0.04
A301,0.28,0.27,0.27,0.27
A302,1.21,1.24,1.25,1.23
A303,0.08,0.08,0.08,0.08
A304,0.17,0.16,0.18,0.17
A305,0.72,0.73,0.70,0.73
A311,1.32,1.19,1.35,1.24
C312,0.09,0.10,0.08,0.11
A314,0.05,0.04,0.04,0.04
C316,0.06,0.12,0.05,0.11
A319,0.97,0.88,0.94,0.90
C322,0.05,0.04,0.04,0.04
A324,0.09,0.11,0.07,0.12
A326,0.93,0.83,0.92,0.84
A327,1.08,0.99,1.11,1.01
A330,0.89,0.93,0.81,0.91
A332,0.54,0.65,0.50,0.63

Source: Ye et al. 2022 (doi:10.1038/s41594-022-00746-2), supplementary data.